The target in one assay is FluB RdRp complex (Influenza B virus (B/Memphis/13/2003), UniProt Q5V8Y6). To be noted: for Km / Vmax: Michaelis-Menten fit, 30-minute time point, MnCl2 2.5 mM; for Selectivity (CTP over analogue): incorporation at template position +4, ratio of efficiency of CTP incorporation to that of the analogue.
In the next assay the target is HCV RdRp (Hepatitis C virus genotype 1b, UniProt P26663). To be noted: for Km / Vmax: Michaelis-Menten fit, 30-minute time point, MgCl2 5 mM; for Selectivity (CTP over analogue): incorporation at template position +4, ratio of efficiency of CTP incorporation to that of the analogue.
The target of another assay is Zika RdRp (Zika virus, UniProt Q32ZE1). As to conditions: for Km / Vmax: Michaelis-Menten fit, 30-minute time point, MnCl2 2.5 mM; for Selectivity (CTP over analogue): incorporation at template position +4, ratio of efficiency of CTP incorporation to that of the analogue.
In another assay the target is RSV RdRp complex (Human respiratory syncytial virus A, UniProt P28887). To be noted: for Km / Vmax: Michaelis-Menten fit, 30-minute time point, MgCl2 5 mM; for Selectivity (CTP over analogue): incorporation at template position +4, ratio of efficiency of CTP incorporation to that of the analogue.
A further assay has as its target Ebola RdRp complex (Zaire ebolavirus, UniProt Q05318). As to conditions: for Km / Vmax: Michaelis-Menten fit, 30-minute time point, MgCl2 5 mM; for Selectivity (CTP over analogue): incorporation at template position +4, ratio of efficiency of CTP incorporation to that of the analogue.
Assay [1] deals with EBOV. As to conditions: non-human primates; Warren et al. 2016; cited from earlier work.
The subject of assay [2] is EBOV. To be noted: Warren et al. 2016; cited from earlier work.
The mark [3] stands for this setting: 5′-phosphorylated primer, FIG. 8.

The chains behind the UniProt entries cited, without tags or fusion partners. Where a name states a change or a piece, a line headed by the entry shows the natural chain unless it says otherwise. Residues count along the entry.
UniProt P26663, 2420-3010 limits assumed: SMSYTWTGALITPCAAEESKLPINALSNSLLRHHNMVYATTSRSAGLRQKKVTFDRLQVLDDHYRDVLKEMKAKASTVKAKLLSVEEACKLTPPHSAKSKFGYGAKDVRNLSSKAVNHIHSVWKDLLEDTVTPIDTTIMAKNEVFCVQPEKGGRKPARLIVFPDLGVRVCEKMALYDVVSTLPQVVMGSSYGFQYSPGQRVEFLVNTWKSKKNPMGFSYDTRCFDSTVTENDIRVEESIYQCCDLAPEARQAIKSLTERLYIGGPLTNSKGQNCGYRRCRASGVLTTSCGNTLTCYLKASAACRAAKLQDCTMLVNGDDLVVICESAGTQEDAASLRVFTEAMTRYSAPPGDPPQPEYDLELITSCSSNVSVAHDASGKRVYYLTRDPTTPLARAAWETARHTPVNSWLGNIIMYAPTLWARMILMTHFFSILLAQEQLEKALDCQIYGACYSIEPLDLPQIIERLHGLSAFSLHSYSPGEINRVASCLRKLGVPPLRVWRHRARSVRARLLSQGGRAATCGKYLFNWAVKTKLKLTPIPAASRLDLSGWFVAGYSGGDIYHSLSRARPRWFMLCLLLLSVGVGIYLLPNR
UniProt Q32ZE1, 2517-3419 limits assumed: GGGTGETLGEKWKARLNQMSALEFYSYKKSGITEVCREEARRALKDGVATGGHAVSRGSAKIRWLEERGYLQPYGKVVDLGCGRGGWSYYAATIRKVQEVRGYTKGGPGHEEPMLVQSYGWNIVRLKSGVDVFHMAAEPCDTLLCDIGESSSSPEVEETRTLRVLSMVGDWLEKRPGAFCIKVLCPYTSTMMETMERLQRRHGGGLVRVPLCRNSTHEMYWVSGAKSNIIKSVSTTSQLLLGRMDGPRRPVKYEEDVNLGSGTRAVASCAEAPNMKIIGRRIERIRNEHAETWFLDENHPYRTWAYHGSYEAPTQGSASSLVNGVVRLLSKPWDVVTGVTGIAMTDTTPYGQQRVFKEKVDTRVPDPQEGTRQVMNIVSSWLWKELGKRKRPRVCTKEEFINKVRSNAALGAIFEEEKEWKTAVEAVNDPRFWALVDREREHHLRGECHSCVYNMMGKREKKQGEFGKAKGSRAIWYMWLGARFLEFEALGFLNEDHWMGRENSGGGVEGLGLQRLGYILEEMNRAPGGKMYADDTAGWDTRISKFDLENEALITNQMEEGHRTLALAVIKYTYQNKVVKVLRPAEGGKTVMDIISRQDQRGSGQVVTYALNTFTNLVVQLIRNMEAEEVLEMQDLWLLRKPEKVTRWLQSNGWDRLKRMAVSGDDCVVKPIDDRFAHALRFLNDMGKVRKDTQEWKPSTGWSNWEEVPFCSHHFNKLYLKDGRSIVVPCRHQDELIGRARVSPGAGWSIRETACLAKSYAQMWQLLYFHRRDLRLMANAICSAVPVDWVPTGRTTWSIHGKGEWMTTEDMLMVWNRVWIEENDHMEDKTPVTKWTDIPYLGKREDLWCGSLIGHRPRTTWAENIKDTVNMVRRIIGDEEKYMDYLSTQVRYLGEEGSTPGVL
UniProt P28887: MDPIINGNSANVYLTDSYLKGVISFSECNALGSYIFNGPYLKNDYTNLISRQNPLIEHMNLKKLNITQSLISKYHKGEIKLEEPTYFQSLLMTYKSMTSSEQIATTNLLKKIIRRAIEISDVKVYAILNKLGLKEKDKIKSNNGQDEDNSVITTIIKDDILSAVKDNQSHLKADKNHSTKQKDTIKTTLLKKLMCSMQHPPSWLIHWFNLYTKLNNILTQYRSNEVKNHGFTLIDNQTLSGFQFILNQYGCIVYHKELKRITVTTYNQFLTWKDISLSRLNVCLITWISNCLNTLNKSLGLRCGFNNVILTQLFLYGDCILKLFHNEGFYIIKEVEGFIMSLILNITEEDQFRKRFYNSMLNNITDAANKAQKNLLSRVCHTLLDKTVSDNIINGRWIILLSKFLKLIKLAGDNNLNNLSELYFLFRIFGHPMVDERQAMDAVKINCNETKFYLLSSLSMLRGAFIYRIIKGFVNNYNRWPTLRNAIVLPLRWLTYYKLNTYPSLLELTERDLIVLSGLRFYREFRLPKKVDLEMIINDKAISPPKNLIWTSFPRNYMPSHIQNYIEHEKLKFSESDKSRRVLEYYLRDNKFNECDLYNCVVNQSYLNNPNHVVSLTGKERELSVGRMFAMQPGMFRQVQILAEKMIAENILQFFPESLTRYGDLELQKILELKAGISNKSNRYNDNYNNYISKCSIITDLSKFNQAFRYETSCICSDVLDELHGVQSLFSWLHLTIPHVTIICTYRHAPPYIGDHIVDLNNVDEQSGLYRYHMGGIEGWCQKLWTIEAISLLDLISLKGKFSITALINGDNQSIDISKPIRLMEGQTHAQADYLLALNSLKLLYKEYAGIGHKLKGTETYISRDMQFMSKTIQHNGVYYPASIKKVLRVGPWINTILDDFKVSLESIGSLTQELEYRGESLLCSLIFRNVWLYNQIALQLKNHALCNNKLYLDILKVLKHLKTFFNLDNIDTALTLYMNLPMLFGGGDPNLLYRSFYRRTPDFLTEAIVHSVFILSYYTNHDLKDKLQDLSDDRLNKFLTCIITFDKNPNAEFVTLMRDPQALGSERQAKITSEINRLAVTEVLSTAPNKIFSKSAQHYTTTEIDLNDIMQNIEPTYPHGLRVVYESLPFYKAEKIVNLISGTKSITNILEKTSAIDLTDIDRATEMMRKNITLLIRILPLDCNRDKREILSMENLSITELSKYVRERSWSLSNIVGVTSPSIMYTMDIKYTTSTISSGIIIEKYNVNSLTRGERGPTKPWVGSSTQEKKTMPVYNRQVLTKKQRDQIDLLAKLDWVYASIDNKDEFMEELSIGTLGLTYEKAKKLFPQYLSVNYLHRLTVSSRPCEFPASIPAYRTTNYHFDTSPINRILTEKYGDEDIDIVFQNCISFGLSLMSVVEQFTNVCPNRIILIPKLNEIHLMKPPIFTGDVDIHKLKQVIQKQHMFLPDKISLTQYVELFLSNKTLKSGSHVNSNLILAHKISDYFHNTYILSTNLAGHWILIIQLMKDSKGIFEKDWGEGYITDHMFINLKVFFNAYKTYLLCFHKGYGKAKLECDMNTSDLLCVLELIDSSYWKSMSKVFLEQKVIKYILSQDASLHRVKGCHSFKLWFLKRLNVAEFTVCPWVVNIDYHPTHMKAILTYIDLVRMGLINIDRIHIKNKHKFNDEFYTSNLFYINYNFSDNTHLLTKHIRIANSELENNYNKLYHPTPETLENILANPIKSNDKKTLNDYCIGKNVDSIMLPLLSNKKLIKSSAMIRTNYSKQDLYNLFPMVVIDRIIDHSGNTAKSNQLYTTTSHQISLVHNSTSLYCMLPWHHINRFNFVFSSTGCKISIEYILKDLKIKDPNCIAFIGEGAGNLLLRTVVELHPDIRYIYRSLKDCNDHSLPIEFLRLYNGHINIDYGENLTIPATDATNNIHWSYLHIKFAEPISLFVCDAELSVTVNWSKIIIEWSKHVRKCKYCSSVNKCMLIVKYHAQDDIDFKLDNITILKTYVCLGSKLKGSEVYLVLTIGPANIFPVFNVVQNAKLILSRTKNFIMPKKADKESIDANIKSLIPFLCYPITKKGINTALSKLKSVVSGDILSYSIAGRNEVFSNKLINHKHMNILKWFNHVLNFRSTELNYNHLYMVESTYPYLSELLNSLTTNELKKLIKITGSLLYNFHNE
UniProt Q05318: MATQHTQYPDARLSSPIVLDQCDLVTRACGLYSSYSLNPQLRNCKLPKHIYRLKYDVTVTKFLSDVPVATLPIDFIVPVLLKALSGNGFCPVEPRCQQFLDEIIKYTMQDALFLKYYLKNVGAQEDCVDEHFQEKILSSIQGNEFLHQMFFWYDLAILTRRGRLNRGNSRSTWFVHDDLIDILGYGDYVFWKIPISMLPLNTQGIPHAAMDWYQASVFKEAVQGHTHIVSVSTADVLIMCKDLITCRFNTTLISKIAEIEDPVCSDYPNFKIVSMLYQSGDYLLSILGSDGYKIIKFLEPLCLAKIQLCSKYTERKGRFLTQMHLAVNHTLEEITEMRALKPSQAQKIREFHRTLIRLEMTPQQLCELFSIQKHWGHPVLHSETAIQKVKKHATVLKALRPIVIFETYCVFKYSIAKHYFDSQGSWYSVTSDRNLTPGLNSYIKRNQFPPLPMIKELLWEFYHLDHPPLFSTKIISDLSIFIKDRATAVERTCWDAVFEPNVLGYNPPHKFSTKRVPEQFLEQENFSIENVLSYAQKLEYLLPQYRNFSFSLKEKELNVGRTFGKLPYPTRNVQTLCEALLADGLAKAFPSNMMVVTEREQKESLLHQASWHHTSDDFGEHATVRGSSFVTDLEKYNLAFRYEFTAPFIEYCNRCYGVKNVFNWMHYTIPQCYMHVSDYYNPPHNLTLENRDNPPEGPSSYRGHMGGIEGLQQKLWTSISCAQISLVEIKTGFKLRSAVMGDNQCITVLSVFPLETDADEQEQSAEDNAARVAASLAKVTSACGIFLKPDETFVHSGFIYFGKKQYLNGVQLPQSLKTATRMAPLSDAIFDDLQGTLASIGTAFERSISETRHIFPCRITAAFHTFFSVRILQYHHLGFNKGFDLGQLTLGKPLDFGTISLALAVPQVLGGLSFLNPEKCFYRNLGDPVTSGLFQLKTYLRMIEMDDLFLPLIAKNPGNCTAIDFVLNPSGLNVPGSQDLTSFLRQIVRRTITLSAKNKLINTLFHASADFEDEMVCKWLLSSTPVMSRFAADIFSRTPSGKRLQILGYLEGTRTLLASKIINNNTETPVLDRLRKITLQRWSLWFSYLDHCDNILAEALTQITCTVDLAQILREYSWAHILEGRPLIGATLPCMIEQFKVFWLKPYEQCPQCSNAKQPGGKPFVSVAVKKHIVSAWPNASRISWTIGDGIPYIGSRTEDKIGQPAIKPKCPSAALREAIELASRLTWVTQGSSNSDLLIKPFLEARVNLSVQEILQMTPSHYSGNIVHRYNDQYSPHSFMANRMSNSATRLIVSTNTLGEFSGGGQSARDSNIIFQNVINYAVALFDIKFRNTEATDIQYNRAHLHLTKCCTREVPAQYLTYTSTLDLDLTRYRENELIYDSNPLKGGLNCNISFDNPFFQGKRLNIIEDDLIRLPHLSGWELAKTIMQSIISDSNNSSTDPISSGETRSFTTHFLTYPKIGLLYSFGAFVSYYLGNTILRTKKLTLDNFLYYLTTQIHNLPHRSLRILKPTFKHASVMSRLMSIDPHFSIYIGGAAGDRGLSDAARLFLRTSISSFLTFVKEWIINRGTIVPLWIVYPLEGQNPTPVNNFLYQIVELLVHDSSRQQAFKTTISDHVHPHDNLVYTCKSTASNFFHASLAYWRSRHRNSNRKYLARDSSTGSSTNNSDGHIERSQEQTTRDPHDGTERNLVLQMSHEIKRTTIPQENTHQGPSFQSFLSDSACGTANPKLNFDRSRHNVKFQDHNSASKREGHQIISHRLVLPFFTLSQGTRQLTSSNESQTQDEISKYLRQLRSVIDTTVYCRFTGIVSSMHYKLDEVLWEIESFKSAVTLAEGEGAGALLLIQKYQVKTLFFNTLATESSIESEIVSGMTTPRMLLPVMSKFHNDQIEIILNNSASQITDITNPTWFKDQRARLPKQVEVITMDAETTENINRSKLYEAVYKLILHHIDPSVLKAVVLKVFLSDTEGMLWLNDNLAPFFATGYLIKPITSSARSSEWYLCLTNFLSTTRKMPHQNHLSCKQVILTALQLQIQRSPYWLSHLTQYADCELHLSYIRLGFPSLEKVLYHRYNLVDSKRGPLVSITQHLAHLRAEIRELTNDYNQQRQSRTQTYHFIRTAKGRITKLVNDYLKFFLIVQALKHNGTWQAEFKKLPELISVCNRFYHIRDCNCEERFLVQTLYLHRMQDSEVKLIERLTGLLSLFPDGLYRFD

Take `Nc1ccn([C@@H]2O[C@H](COP(=O)(O)OP(=O)(O)OP(=O)(O)O)[C@@H](O)[C@H]2O)c(=O)n1`: the Km on FluB RdRp complex was 0.0038 µM; on HCV RdRp, 0.0006 µM; at Zika RdRp it was 0.0032 µM; at RSV RdRp complex, 0.049 µM; on Ebola RdRp complex it was 1.2 µM. The Vmax is on record as 0.88 p. frac at FluB RdRp complex; 0.97 p. frac on HCV RdRp; 0.96 p. frac at Zika RdRp; 0.70 p. frac at RSV RdRp complex; 0.82 p. frac at Ebola RdRp complex.
With `Nc1ccn([C@H]2C[C@H](O)[C@@H](COP(=O)(O)OP(=O)(O)OP(=O)(O)O)O2)c(=O)n1`, the “Sel. (efficiency of CTP / efficiency of analogue)” value on FluB RdRp complex came to 6; at HCV RdRp, 654; on Zika RdRp, 90; on RSV RdRp complex, 24; on Ebola RdRp complex, 73. For the same compound, the Km came out at 0.01 µM at FluB RdRp complex; 0.34 µM on HCV RdRp; 0.25 µM on Zika RdRp; 0.45 µM at RSV RdRp complex; 63 µM on Ebola RdRp complex. In addition, the Vmax at FluB RdRp complex came out at 0.38 p. frac; on HCV RdRp, 0.84 p. frac; on Zika RdRp, 0.83 p. frac; at RSV RdRp complex it was 0.27 p. frac; at Ebola RdRp complex, 0.59 p. frac. Besides, the “Selectivity (CTP over analogue)” value was 6 fold at FluB RdRp complex; 654 fold at HCV RdRp; 90 fold at Zika RdRp; 24 fold on RSV RdRp complex; 73 fold at Ebola RdRp complex.
`Nc1ccn([C@@H]2O[C@H](COP(=O)(O)OP(=O)(O)OP(=O)(O)O)[C@@H](O)[C@@H]2O)c(=O)n1`: the “Sel. (efficiency of CTP / efficiency of analogue)” value was found to be 23 at FluB RdRp complex; 100 on HCV RdRp; 8 on Zika RdRp; 0.68 at RSV RdRp complex; 3 on Ebola RdRp complex. The “inhibition of RNA synthesis (chain-termination) after incorporation at position +4” value on FluB RdRp complex (setting [3]) is recorded as “same pattern as the Ebola enzyme”; against HCV RdRp (setting [3]), “same pattern as the Ebola enzyme”; against Zika RdRp (5′-phosphorylated primer, FIG. 8c), “incomplete chain-termination”; at RSV RdRp complex (setting [3]), “same pattern as the Ebola enzyme”. Moreover, the Km on FluB RdRp complex was determined as 0.077 µM; at HCV RdRp, 0.059 µM; on Zika RdRp, 0.026 µM; at RSV RdRp complex, 0.035 µM; at Ebola RdRp complex it was 3.2 µM. Besides, the Vmax on FluB RdRp complex was 0.77 p. frac; at HCV RdRp it was 0.95 p. frac; at Zika RdRp it was 0.95 p. frac; on RSV RdRp complex it was 0.74 p. frac; at Ebola RdRp complex, 0.77 p. frac. The “Selectivity (CTP over analogue)” value on FluB RdRp complex was 23 fold; on HCV RdRp it was 100 fold; on Zika RdRp, 8 fold; at RSV RdRp complex it was 0.7 fold; on Ebola RdRp complex it was 3 fold.
Turning to `CCC(CC)COC(=O)[C@H](C)N[P@](=O)(OC[C@H]1O[C@@](C#N)(c2ccc3c(N)ncnn23)[C@H](O)[C@@H]1O)Oc1ccccc1`, the post-exposure protection entry in the assay on EBOV [1] is “provided post-exposure protection”. Besides, in the assay with EBOV [2], the “inhibition of EBOV infection in cell culture” value is given as “potent inhibitor”.

Values taken from patent publication US20200277648A1, “Recombinant RNA-Dependent RNA Polymerase of RNA Viruses” (published 2020).
